Results of unrelated studies side by side (data: NIAID ChemDB).

Common to all: tests in culture; agent: Cryptosporidium parvum; endpoint: EC50

ECn: concentration that inhibits the pathogen or its effect by n%. An empty or dashed field is not shown. Lines come from different laboratories, so protocols vary.

compound,read by,cells,strain,result
COc1cc([C@@H]2c3cc4c(cc3[C@@H](O[C@@H]3O[C@@H]5CO[C@@H](c6cccs6)O[C@H]5[C@H](O)[C@H]3O)[C@H]3COC(=O)[C@H]23)OCO4)cc(OC)c1O,,HCT-8,,>1 µM
CCCN(CCC)c1c([N+](=O)[O-])cc(C(F)(F)F)cc1[N+](=O)[O-],,,,1.14 µM
CCCCc1cc2c(=O)c(C(=O)OC)c[nH]c2cc1OCc1ccccc1,,L929,Calf isolate,>20 µg/mL
NS(=O)(=O)c1cc([N+](=O)[O-])c(N2COC2)c([N+](=O)[O-])c1,ELISA / luminescence,MDCK cells,,0.46 µM
CCCN(CCC)c1c([N+](=O)[O-])cc(C(F)(F)F)cc1[N+](=O)[O-],,HCT-8,,<1 µM
NS(=O)(=O)c1cc([N+](=O)[O-])c(N(CCO)CCO)c([N+](=O)[O-])c1,ELISA / luminescence,MDCK cells,,>10 µM
N#CC(c1ccc(Cl)cc1)c1c(Cl)cc(-n2ncc(=O)[nH]c2=O)cc1Cl,,L929,Calf isolate,>20 µg/mL
CCCC(CCCl)c1c([N+](=O)[O-])cc(C(F)(F)F)cc1[N+](=O)[O-],,,,1.81 µM
NS(=O)(=O)c1cc([N+](=O)[O-])c(N2CCCCC2)c([N+](=O)[O-])c1,ELISA / luminescence,MDCK cells,,0.9 µM
CO[C@@H]1[C@@H](OC)[C@H](C)[C@@](O)(CC(=O)O)O[C@H]1[C@H](C)[C@H]1O[C@@]2(CC[C@@](C)([C@H]3CC[C@@](C)([C@@H]4O[C@@H]([C@H]5O[C@](C)(O)[C@H](C)C[C@@H]5C)C[C@@H]4O[C@@H]4C[C@H](OC)[C@@H](OC)[C@H](C)O4)O3)O2)C[C@H](O)[C@H]1C,antigen,MDCK,Iowa bovine isolate,0.29 µM
CC(=O)N[C@@H](CC(C)C)C(=O)N[C@@H](CC(C)C)C(=O)N[C@H](C=O)CCCN=C(N)N,cell count / microscopy,,,<500 µg/mL
CC[C@H]1OC(=O)[C@H](C)[C@@H](O[C@H]2C[C@@](C)(OC)[C@@H](O)[C@H](C)O2)[C@H](C)[C@@H](O[C@@H]2O[C@H](C)C[C@H](N(C)C)[C@H]2O)[C@](C)(O)C[C@@H](C)CN(C)[C@H](C)[C@@H](O)[C@]1(C)O,cell count,,,>50 µM
NS(=O)(=O)c1cc([N+](=O)[O-])c(Nc2ccccc2)c([N+](=O)[O-])c1,ELISA / luminescence,MDCK cells,,71.4 µM
CO[C@H]1/C=C/O[C@@]2(C)Oc3c(C)c(O)c4c(O)c(c(/C=N/N5CCN(C)CC5)c(O)c4c3C2=O)NC(=O)/C(C)=C\C=C\[C@H](C)[C@H](O)[C@@H](C)[C@@H](O)[C@@H](C)[C@H](OC(C)=O)[C@@H]1C,cell count,,,>50 µM
Cc1cc(-n2c(=O)[nH]c(=O)n(C)c2=O)ccc1Oc1ccc(SC(F)(F)F)cc1,,HCT-8,,>1 µM
CCCN(CCC)c1c([N+](=O)[O-])cc(S(N)(=O)=O)cc1[N+](=O)[O-],ELISA / luminescence,MDCK cells,,0.15 µM
CO[C@@]12[C@H](COC(N)=O)C3=C(C(=O)C(C)=C(N)C3=O)N1C[C@@H]1N[C@@H]12,,HCT-8,,<1 µM
COC(=O)c1cc([N+](=O)[O-])c(N2CCOCC2)c([N+](=O)[O-])c1,ELISA / luminescence,MDCK cells,,66.9 µM
O=C(C[C@H]1NCCC[C@@H]1O)Cn1cnc2cc(Br)c(Cl)cc2c1=O,,L929,Calf isolate,<0.032 µg/mL
O=C(O)c1cc([N+](=O)[O-])c(N2CCOCC2)c([N+](=O)[O-])c1,ELISA / luminescence,MDCK cells,,>10 µM
NC(=O)c1nc[nH]c1C(N)=O,,L929,Human isolate,>4 µg/mL
O=S(=O)(F)Cc1ccccc1,,,,<3000 µM

Repeating the first 3 entries:

compound	read by	cells	strain	result
COc1cc([C@@H]2c3cc4c(cc3[C@@H](O[C@@H]3O[C@@H]5CO[C@@H](c6cccs6)O[C@H]5[C@H](O)[C@H]3O)[C@H]3COC(=O)[C@H]23)OCO4)cc(OC)c1O		HCT-8		>1 µM
CCCN(CCC)c1c([N+](=O)[O-])cc(C(F)(F)F)cc1[N+](=O)[O-]				1.14 µM
CCCCc1cc2c(=O)c(C(=O)OC)c[nH]c2cc1OCc1ccccc1		L929	Calf isolate	>20 µg/mL